Compound potency records, mixed from different reports. Data source: NIAID ChemDB in PubChem.

Common to all: tests in culture; agent: HIV-2; cells: MT-4; endpoint: EC50

Rows are shuffled and stem from different studies.

SMILES | strain or isolate | changes | read by | value
CCc1c(Cc2cccc3ccccc23)nc(NCc2ccc(F)cc2)[nH]c1=O | ROD |  | MTT | >31.44 µM
Cc1cccc2nc3n(c12)C(c1c(F)cccc1Cl)SC3 | ROD |  | cytopathic effect / MTT | >25.7 µM
COc1ccc(CCN=C2C=C(Cc3ccccc3)NS(=O)(=O)N2)cc1 | ROD |  | MTT | >209 µM
CC(=O)Nc1cnc(Oc2c(Cl)cc(Cl)cc2Cl)nc1Nc1ccc(C#N)cc1 | ROD |  | MTT | >33.16 µM
CCC[C@]1(CCc2ccccc2)CC(O)=C([C@@H](CC)c2cccc(NS(=O)(=O)c3ccc(C(F)(F)F)cn3)c2)C(=O)O1 | EHO |  | MTT / p24 | 0.2858 µM
CC(C)(C)[Si](C)(C)OC[C@H]1O[C@@H](n2cnc3nc[nH]c(=O)c32)[C@H](O[Si](C)(C)C(C)(C)C)C12OS(=O)(=O)C=C2N | ROD |  | trypan blue | >4 µg/mL
C#Cc1ccc(Nc2nccc(Oc3c(C)cc(-c4cn(Cc5ccccc5[N+](=O)[O-])nn4)cc3C)n2)cc1 | ROD |  | MTT | >7.22 µM
Fc1cccc(Cl)c1C1SCc2nc3cc(C(F)(F)F)ccc3n21 | ROD |  | cytopathic effect / MTT | >335 µM
O=S1(=O)NC(Cc2cccc3ccccc23)=CC(=NC2CCN(Cc3c(Cl)cccc3Cl)CC2)N1 | ROD |  | MTT | >54.73 µM
CN(C)CCCNc1nc(N)nc2c1ncn2CCOCP(=O)(O)O | ROD |  | cytopathic effect / MTT | 7.03 µg/mL
O=C(N/N=C/c1ccccc1[N+](=O)[O-])c1csc(N2N=C(c3ccccc3)CC2c2ccc(Cl)cc2)n1 | ROD |  | MTT / absorbance | >125 µM
Cn1ncc2c1S(=O)(=O)N(CCc1ccccc1)C(=O)N2CCc1ccccc1C#N | ROD |  | MTT | >198 µM
O=S1(=O)NC(Cc2cccc3ccccc23)=CC(=NC2CCN(Cc3ccccc3)CC2)N1 | ROD |  | MTT | >117 µM
Cn1ncc2c1S(=O)(=O)N(CCc1ccccc1)C(=O)N2CCc1ccccc1Cl | ROD |  | MTT | >300.1 µM
C[C@H](C[n+]1c[nH]c2c(NCCCC3CCCCC3)nc(N)nc21)OCP(=O)(O)O | ROD |  | cytopathic effect / MTT | 3.2 ± 1.6 µg/mL
O=C(N/N=C/c1cccc(Cl)c1)c1csc(N2N=C(c3ccccc3)CC2c2ccc(Cl)cc2)n1 | ROD |  | MTT / absorbance | >64.5 µM
O=C(c1ccccc1)c1ccc2c(c1)nc1n2C(c2c(Cl)cccc2Cl)SC1 | ROD |  | cytopathic effect / MTT | >28.3 µM
COc1ccccc1/C=N/NC(=O)c1csc(N2N=C(c3ccccc3)CC2c2ccc(Cl)cc2)n1 | ROD |  | MTT / absorbance | >10.32 µM
CC(=O)Nc1cnc(Oc2c(C)cc(C=O)cc2C)nc1Nc1ccc(C#N)cc1 | ROD |  | MTT | >237 µM
CCNc1nc(N(C)C)nc2c1[nH]c[n+]2C[C@@H](C)OCP(=O)(O)O | ROD |  | cytopathic effect / MTT | 4.65 ± 2.59 µg/mL
O=C(O)CCC(=O)O | ROD |  | cytopathic effect / MTT | >25 µM
CCN(CC)c1nc(Cc2cccc3ccccc23)cc(=O)[nH]1 | ROD |  | MTT | >72.55 µM
Fc1cccc(F)c1C1SCc2nc3cc(C(F)(F)F)ccc3n21 | ROD |  | cytopathic effect / MTT | >351 µM
N#Cc1ccc(Nc2nc(Oc3c(Cl)cccc3Cl)ncc2N)cc1 | ROD |  | MTT | >33.04 µM
NNC(=O)c1csc(N2N=C(c3ccccc3)CC2c2ccc(Cl)cc2)n1 | ROD |  | MTT / absorbance | >125 µM
O=S1(=O)N=C(Nc2ccc(Br)cc2)C=C(Cc2cccc3ccccc23)N1 | ROD |  | MTT | >140 µM
Cc1cc(C#N)cc(C)c1Oc1ncc(NC(=O)C(F)(F)F)c(Nc2ccc(C#N)cc2)n1 | ROD |  | MTT | >276 µM
CC(C)(C)[Si](C)(C)OC[C@H]1O[C@@H](n2cnc3c(=O)[nH]cnc32)[C@H](O[Si](C)(C)C(C)(C)C)C12OS(=O)(=O)C=C2N | ROD |  | trypan blue | >4 µg/mL
CC(=O)Nc1cnc(Oc2c(Cl)cccc2Cl)nc1Nc1ccc(C#N)cc1 | ROD |  | MTT | >193.7 µM
C#Cc1ccc(Nc2nccc(Oc3c(C)cc(-c4cn(CCCC(=O)OC)nn4)cc3C)n2)cc1 | ROD |  | MTT | >20.15 µM
N#Cc1ccccc1CN1CCC(N=C2C=C(Cc3cccc4ccccc34)NS(=O)(=O)N2)CC1 | ROD |  | MTT | >108 µM
Cn1ncc2c1S(=O)(=O)N(CCc1ccc(Cl)cc1)C(=O)N2CCc1ccc(Cl)cc1 | ROD |  | MTT | >5.8 µM
CN(C)c1ccc(NC2=NS(=O)(=O)NC(Cc3ccc4ccccc4c3)=C2)cc1 | ROD |  | MTT | >33 µM
Cn1ncc2c1S(=O)(=O)N(CCc1ccccc1)C(=O)N2CCc1cccc(Cl)c1 | ROD |  | MTT | 44.7 µM
CCc1c(Cc2cccc3ccccc23)nc(NCc2ccccc2)[nH]c1=O | ROD |  | MTT | >34.65 µM
CN(C)CCNc1nc(N)nc2c1ncn2CCOCP(=O)(O)O | ROD |  | cytopathic effect / MTT | 2.39 µg/mL
O=S1(=O)N=C(Nc2ccc(Cl)cc2)C=C(Cc2ccccc2)N1 | ROD |  | MTT | >179 µM
O=C(c1ccccc1)c1ccc2c(c1)nc1n2C(c2c(F)cccc2F)SC1 | ROD |  | cytopathic effect / MTT | >26.7 µM
O=S1(=O)N=C(Nc2cccc(Cl)c2)C=C(Cc2ccccc2)N1 | ROD |  | MTT | >189 µM
N#Cc1ccc(Nc2nc(Oc3c(Br)cc(Br)cc3Br)ncc2NC(=O)C(F)(F)F)cc1 | ROD |  | MTT | >7.01 µM
COc1ncnc2c1ncn2[C@@H]1O[C@H](CO[Si](C)(C)C(C)(C)C)C2(OS(=O)(=O)C=C2N)[C@H]1O[Si](C)(C)C(C)(C)C | ROD |  | trypan blue | >4 µg/mL
Cn1ncc2c1S(=O)(=O)N(CCc1ccccc1)C(=O)N2CCc1cccc(C#N)c1 | ROD |  | MTT | >307.1 µM
O=C(c1ccccc1)c1ccc2c(c1)nc1n2C(c2c(F)cccc2Cl)SC1 | ROD |  | cytopathic effect / MTT | >26.7 µM
O=C(N/N=C/c1ccc(Cl)cc1O)c1csc(N2N=C(c3ccccc3)CC2c2ccc(Cl)cc2)n1 | ROD |  | MTT / absorbance | >0.45 µM
Cc1ccnc2c1NC(=O)c1cccnc1N2C1CC1 | EHO |  | cytopathic effect / MTT | >97.6 µM
C=C1[C@H](CO)[C@@H](O)C[C@@H]1n1cnc2c(=O)[nH]c(N)nc21 | ROD |  | MTT | >4.59 µM
CCc1c(Cc2cccc3ccccc23)nc(N)[nH]c1=O | ROD |  | MTT | >91.82 µM
C[C@H](C[n+]1c[nH]c2c(N(C)C)nc(N)nc21)OCP(=O)(O)O | ROD |  | cytopathic effect / MTT | 4.2 ± 2.8 µg/mL
Cc1cn([C@H]2C[C@H](N=[N+]=[N-])[C@@H](CO)O2)c(=O)[nH]c1=O | ROD |  | MTT | 0.006 µM
CC(C)CN(C[C@@H](O)[C@H](Cc1ccccc1)NC(=O)O[C@H]1CCOC1)S(=O)(=O)c1ccc(N)cc1 | EHO |  | MTT / p24 | 0.3547 µM
N#Cc1cccc(CN2CCC(N=C3C=C(Cc4cccc5ccccc45)NS(=O)(=O)N3)CC2)c1 | ROD |  | MTT | >113 µM
NS(=O)(=O)c1ccc(NC2=NS(=O)(=O)NC(Cc3ccc4ccccc4c3)=C2)cc1 | ROD |  | MTT | >139 µM
CCCCN(CCCC)c1nc(Cc2cccc3ccccc23)c(C)c(=O)[nH]1 | ROD |  | MTT | ≥120 µM
C#Cc1ccc(Nc2nccc(Oc3c(C)cc(-c4cn(CCc5ccccc5)nn4)cc3C)n2)cc1 | ROD |  | MTT | >5.69 µM
N#Cc1cccc(CN2CCC(N=C3C=C(Cc4ccc(Cl)cc4Cl)NS(=O)(=O)N3)CC2)c1 | ROD |  | MTT | >99.87 µM
CCc1c(Cc2cccc3ccccc23)nc(N(C)C)[nH]c1=O | ROD |  | MTT | >20.98 µM
Fc1cccc(F)c1C1SCc2nc3ccccc3n21 | ROD |  | cytopathic effect / MTT | >48.6 µM
CCN[C@H]1CO[C@@H]2OC[C@H](OC(=O)N[C@@H](Cc3ccccc3)[C@H](O)CN(CC(C)C)S(=O)(=O)c3ccc4nc(NC5CC5)sc4c3)[C@@H]21 | EHO |  | MTT / p24 | 0.0219 µM
CCOCn1c(Cc2ccccc2)c(C(C)C)c(=O)[nH]c1=O | EHO | RT-E219D | cytopathic effect / MTT | 15.6 µM
Nc1nc(Nc2cccc3ccccc23)c2ncn(CCOCP(=O)(O)O)c2n1 | ROD |  | cytopathic effect / MTT | 68.5 µg/mL
N#Cc1ccc(CN2CCC(N=C3C=C(Cc4ccc(Cl)cc4Cl)NS(=O)(=O)N3)CC2)cc1 | ROD |  | MTT | >107 µM
CCCCc1c(Cc2cccc3ccccc23)nc(N(CC)CC)[nH]c1=O | ROD |  | MTT | ≥63.82 µM
Cn1cnc2c(ncn2[C@@H]2O[C@H](CO[Si](C)(C)C(C)(C)C)C3(OS(=O)(=O)C=C3N)[C@H]2O[Si](C)(C)C(C)(C)C)c1=O | ROD |  | trypan blue | >100 µg/mL
COc1cc(NC2=NS(=O)(=O)NC(Cc3ccc4ccccc4c3)=C2)cc(OC)c1OC | ROD |  | MTT | >204 µM
COc1cccc(/C=N/NC(=O)c2csc(N3N=C(c4ccccc4)CC3c3ccc(Cl)cc3)n2)c1O | ROD |  | MTT / absorbance | >125 µM
CC(=O)c1ccc(C)cc1NC(C(N)=O)c1c(Cl)cccc1Cl | EHO |  | cytopathic effect / MTT | 7.4 µM
CS(=O)(=O)c1ccc(CN2CCC(N=C3C=C(Cc4cccc5ccccc45)NS(=O)(=O)N3)CC2)cc1 | ROD |  | MTT | >232 µM
Fc1cccc(Cl)c1C1SCc2nc3ccc(C(F)(F)F)cc3n21 | ROD |  | cytopathic effect / MTT | >15 µM
CC(=O)Oc1ccc(/C=C/C(=O)O[C@H](C(=O)O)[C@H](OC(=O)/C=C/c2ccc(OC(C)=O)c(OC(C)=O)c2)C(=O)O)cc1OC(C)=O | ROD |  |  | 5 µM
C#Cc1ccc(Nc2nccc(Oc3c(C)cc(-c4cn(-c5cccc(C(=O)OC)c5)nn4)cc3C)n2)cc1 | ROD |  | MTT | 137 µM
N#Cc1ccc(CN2CCC(N=C3C=C(Cc4cccc5ccccc45)NS(=O)(=O)N3)CC2)cc1 | ROD |  | MTT | >100 µM
C#Cc1ccc(Nc2nccc(Oc3c(C)cc(-c4cn(Cc5cccc([N+](=O)[O-])c5)nn4)cc3C)n2)cc1 | ROD |  | MTT | ≥101 µM
Cc1cc(C)c(CN2CCC(N=C3C=C(Cc4ccc(Cl)cc4Cl)NS(=O)(=O)N3)CC2)c(C)c1 | ROD |  | MTT | >37.35 µM

10 of the rows above, restated:

SMILES,strain or isolate,changes,read by,value
Cn1ncc2c1S(=O)(=O)N(CCc1ccccc1)C(=O)N2CCc1ccccc1C#N,ROD,,MTT,>198 µM
CCc1c(Cc2cccc3ccccc23)nc(NCc2ccccc2)[nH]c1=O,ROD,,MTT,>34.65 µM
Fc1cccc(F)c1C1SCc2nc3cc(C(F)(F)F)ccc3n21,ROD,,cytopathic effect / MTT,>351 µM
CC(=O)Nc1cnc(Oc2c(C)cc(C=O)cc2C)nc1Nc1ccc(C#N)cc1,ROD,,MTT,>237 µM
Cn1ncc2c1S(=O)(=O)N(CCc1ccccc1)C(=O)N2CCc1ccccc1Cl,ROD,,MTT,>300.1 µM
Cn1ncc2c1S(=O)(=O)N(CCc1ccccc1)C(=O)N2CCc1cccc(C#N)c1,ROD,,MTT,>307.1 µM
C[C@H](C[n+]1c[nH]c2c(N(C)C)nc(N)nc21)OCP(=O)(O)O,ROD,,cytopathic effect / MTT,4.2 ± 2.8 µg/mL
C#Cc1ccc(Nc2nccc(Oc3c(C)cc(-c4cn(CCCC(=O)OC)nn4)cc3C)n2)cc1,ROD,,MTT,>20.15 µM
CC(=O)c1ccc(C)cc1NC(C(N)=O)c1c(Cl)cccc1Cl,EHO,,cytopathic effect / MTT,7.4 µM
CCOCn1c(Cc2ccccc2)c(C(C)C)c(=O)[nH]c1=O,EHO,RT-E219D,cytopathic effect / MTT,15.6 µM

An empty or dashed field is not shown. ECn: concentration that inhibits the pathogen or its effect by n%.